Pooled drug test results. Numbers come from NIAID ChemDB, via PubChem.

Shared fields: whole-cell or culture tests; species: Cowpox virus; measure: EC50

Rows are shuffled and stem from different studies.

compound | strain | cells | result
Nc1ccn([C@H]2CC[C@@H](CO)O2)c(=O)n1 |  | HFF | >474 µM
CCOC(=O)CC1OP(=O)(OC[C@H]2O[C@@H](n3cc(/C=C/Br)c(=O)[nH]c3=O)C[C@@H]2O)Oc2cccc(Cl)c21 |  | VERO 76 | >99 µg/mL
Cc1cn([C@H]2C=C[C@@H](CO)O2)c(=O)[nH]c1=O |  | VERO | >446 µM
Nc1ccn(C[C@H]2COP(=O)(O)CO2)c(=O)n1 |  | 3T3 | 12.3 µM
CCCCOC(=O)[C@H](C)NP1(=O)CO[C@@H](Cn2ccc(N)nc2=O)CO1 | Brighton | HFF | 8.4 µM
Cc1ccnc2c1NC(=O)c1cccnc1N2C1CC1 |  | HFF | >300 µM
Nc1ccn(C[C@@H](CO)OCP(=O)(O)O)c(=O)n1 |  | VERO | 62 µM
Nc1ncnc2c1ncn2C[C@@H](CO)OCP(=O)(O)O | Brighton strain wild type | VERO 76 | 4.2 µM
CC(C)(C)NC(=O)[C@@H]1C[C@@H]2CCCC[C@@H]2CN1C[C@@H](O)[C@H](Cc1ccccc1)NC(=O)[C@H](CC(N)=O)NC(=O)c1ccc2ccccc2n1 |  | HFF | >300 µM
Nc1ccn(C[C@H]2COP(=O)(O)CO2)c(=O)n1 |  | VERO | 132 µM
CC(C)(C)NC(=O)[C@@H]1CN(Cc2cccnc2)CCN1C[C@@H](O)C[C@@H](Cc1ccccc1)C(=O)N[C@H]1c2ccccc2C[C@H]1O |  | HFF | >300 µM
CCCCCCCCCCCCCCCCOCCCOP1(=O)CO[C@@H](Cn2ccc(N)nc2=O)CO1 | Brighton | HFF | 2.1 µM
Cc1cn([C@H]2C[C@H](N=[N+]=[N-])[C@@H](CO)O2)c(=O)[nH]c1=O |  | HFF | >300 µM
Nc1ccn(C[C@H]2COP(=O)(O)CO2)c(=O)n1 | Brighton strain wild type | VERO 76 | 57 µM
Nc1nc2c(ncn2COCCOP2(=O)OCc3ccccc3O2)c(=O)[nH]1 |  | VERO 76 | >99 µg/mL
Nc1nccc2c1ncn2[C@@H]1C[C@H](CO)[C@@H](O)[C@H]1O | Brighton strain wild type | VERO 76 | >1000 µM
COc1c(C)c2c(c(O)c1C/C=C(\C)CCC(=O)O)C(=O)OC2 |  | VERO 76 | 3 µM
Cc1c(O)cccc1C(=O)N[C@@H](CSc1ccccc1)[C@H](O)CN1C[C@H]2CCCC[C@H]2C[C@H]1C(=O)NC(C)(C)C |  | HFF | >300 µM

Again, the opening 2 rows:

compound | strain | cells | result
Nc1ccn([C@H]2CC[C@@H](CO)O2)c(=O)n1 |  | HFF | >474 µM
CCOC(=O)CC1OP(=O)(OC[C@H]2O[C@@H](n3cc(/C=C/Br)c(=O)[nH]c3=O)C[C@@H]2O)Oc2cccc(Cl)c21 |  | VERO 76 | >99 µg/mL

An empty or dashed field is not shown. ECn is the concentration giving n% inhibition of infection, replication or growth.